The results in this text go back to article PMC3124085 (Structure (London, England : 1993), 2010).

By UniProt entry, the sequences of proteins in these tests, tags left out. Residues count along the entry.
UniProt Q99816, 2-145: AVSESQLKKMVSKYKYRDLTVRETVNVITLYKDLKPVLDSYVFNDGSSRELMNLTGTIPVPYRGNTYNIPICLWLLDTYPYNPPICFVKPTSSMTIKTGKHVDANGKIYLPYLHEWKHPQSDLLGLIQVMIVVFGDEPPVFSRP

This experiment concerns the target human TSG101 UEV domain (UEV-WT) (Homo sapiens, UniProt Q99816). The note with it: ITC200, 28°C, 20mM sodium phosphate pH 7.20, 150mM NaCl, 5% glycerol, cell 300-600 μM UEV, peptide 4 mM or 6.5 mM, 18 injections of 2.1 μl, one-site model, SD of three measurements, N.B. = no binding.

In the case of LAPSDPPYP [Vps27-PSDP], the “Kd (equilibrium dissociation constant, ITC)” value is given as “N.B”.
